# T1: Human Papillomavirus 1a L2 (Human Papillomavirus 1a, UniProt P03105 1-507)
# T1 construct: also called HPV 1a L2; cbe_252041
# T1 sequence: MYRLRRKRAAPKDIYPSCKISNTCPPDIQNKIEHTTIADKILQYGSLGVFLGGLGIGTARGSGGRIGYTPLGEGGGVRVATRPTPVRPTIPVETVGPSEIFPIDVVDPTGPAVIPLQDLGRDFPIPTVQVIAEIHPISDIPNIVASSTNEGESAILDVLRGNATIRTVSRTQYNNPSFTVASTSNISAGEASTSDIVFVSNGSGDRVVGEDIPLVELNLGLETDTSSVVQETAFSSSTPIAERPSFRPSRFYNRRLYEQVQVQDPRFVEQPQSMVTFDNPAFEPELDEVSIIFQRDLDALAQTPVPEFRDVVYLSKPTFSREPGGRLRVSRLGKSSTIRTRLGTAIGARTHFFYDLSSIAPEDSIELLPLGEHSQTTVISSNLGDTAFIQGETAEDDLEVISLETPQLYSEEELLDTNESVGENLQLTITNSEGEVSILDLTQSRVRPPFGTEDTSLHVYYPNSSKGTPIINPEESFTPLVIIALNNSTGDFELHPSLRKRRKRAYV
# B1: HSPE1 (other)
# chain: not shown
# notes: also called cbe_4268470
# Target: T1, Human Papillomavirus 1a L2
# Assay: Y2H; INT ID 450
binder,measurement,value
B1,binding result,binds

# Source: US20050100554A1 (published 2005)
